Legend:
[1] = target: T1, Wuhan-Hu-1 SARS-CoV-2 S1([…]), S1^E484 (SARS-CoV-2 (Wuhan-Hu-1)); assay: BLI
[2] = target: T1, Wuhan-Hu-1 SARS-CoV-2 S1([…]), S1^E484; assay: BLI; remark: listed apart in the source

B1: TMEM106B luminal domain (TMEM106B^LD), […] of human TMEM106B (domain or fragment)
chain: not shown
modifications: glycosylated
Which results are given for B1?
Kd [1]: 46 µM; koff [2]: 1.6 s⁻¹

Reference: paper PMC10409496 (2023)
